Test system: HIV-1, GVK4046
Experiment: HIV-1 reproduction inhibition in MT-4 cell culture (p24 ELISA and MTT cell vitality, day 4)
Assay type: cell-based
Details: selective index: ratio of 50% toxic concentration to 50% effective dose, MT-4 cells
Protocol: The HIV inhibition study includes cultivation of primary infective MT-4 line lymphoid cells over the studied compounds, the ultimate concentrations of which in the culture medium range from 0.001 µg/ml to 100 µg/ml, during one passage, within 4 days.
HIV reproduction inhibition in the sensitive cell culture is determined by the reduction in p24 virus-specific protein accumulation (according to the enzyme-linked immunosorbent assay) and by the increase in cell vitality over the drug as compared with the reference cells, on Day 4 of the cultivation, using 3-(4.5-dimethylthiazole-2-yl-)-2,5-diphenyl tetrazolium (MTT) bromide staining.
The impact of the studied compounds on HIV-1 reproduction in MT-4 cell culture is studied using a well-known technique.

## Cc1cn([C@H]2C[C@H](N=[N+]=[N-])[C@@H](COP(=O)(O)C(N)=O)O2)c(=O)[nH]c1=O [Acid form (reference), [(2S,3S,5R)-3-azido-5-(5-methyl-2,4-deoxythymidine-1-yl)oxolan-2-yl]methyl ester of carbamoyl phosphonic acid, reference compound]
  IS: 3,250

From patent EP2767543B1, “SALTS OF CARBAMOYL PHOSPHONIC ACID ESTERS WHICH ACT AS SELECTIVE INHIBITORS OF HUMAN IMMUNODEFICIENCY VIRUS HIV-1 PRODUCTION” (Aktsionernoe Obshcestvo "Proizvodstvenno-Kommercheskaya …, priority 2011, dated 2013)
